PSTVd loop 6 mutant pool in Nicotiana benthamiana

The pool varies loop 6 of the PSTVd intermediate strain in the pattern UNNNCGNNNG; wild type is UGACCGCGAG (upper and lower strand joined, each 5' to 3', the first 5 letters being the upper strand, closing pairs included).

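A pool of all variants was put on leaves of three Nicotiana benthamiana plants. Samples came from the inoculated region at 5 days, the leaf margin at 10 and upper systemic leaves at 12.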

Numbers give reads per thousand; 0 = not seen among the reads, higher = more abundant.
Each site shows the three plants.
"Pool" is the share in the plasmid pool used as inoculum, on the same scale.
The inoculated region was read from the minus strand, the other sites from the plus strand.
IR is the inoculated region, LM the leaf margin, Sys the systemic leaves.
Samples held 36,220 to 57,551 reads, so the smallest values rest on one or two reads.

sequence	pool	IR	LM	Sys
UAUACGACUG	0.288	0.156 0.0898 0.0553	0 0 0.0232	0 0 0
UGACUGGAAG	0.0131	0 0 0	0 0 0	0 0 0
UCGCCGCGUG	0.209	0.243 0.144 0.166	0 0.0252 0	0 0 0
UCGACGACGG	0.105	0.156 0.0539 0.0553	0 0 0	0 0 0
UCCUCGACAG	0.209	0.191 0.0719 0.0369	0 0 0.0464	0 0 0
UAUCCGUCAG	0.327	0.0695 0.108 0.0553	0.0276 0 0.0232	0 0 0
UUAUCGUCCG	0.366	0.174 0.108 0.0922	0 0 0.0232	0 0 0
UAGGCGAGAG	0.209	0.156 0.0719 0.129	0.0276 0 0	0 0 0
UGAACGAGGG	0.118	0.0869 0.126 0.129	0.0552 0 0	0 0 0
UGGGCGGAUG	0.157	0.0174 0.0539 0.0738	0.110 0 0	0 0 0
UAAGCGUUUG	0.445	0.122 0.108 0.0738	0 0 0.0232	0 0 0
UGUACGAAAG	0.222	0.139 0.0539 0.0738	0.0276 0 0.0696	0.0359 0.0202 0
UAGCCGGCAG	0.275	0.139 0.0539 0.0553	0 0 0.0464	0 0 0
UGUGCGCGCG	0.275	0.122 0.0719 0.0369	0 0 0.0464	0 0 0
UCAUCGGAAG	0.0523	0.0869 0.0898 0.0738	0 0 0.0232	0 0 0
UUUACGUCCG	0.209	0.122 0.0898 0.0553	0 0 0	0 0 0
UGACCGAACG	0.275	0.243 0.234 0.129	0.221 0.479 0.278	0.108 0.0606 0.144
UUGGCGCCAG	0.261	0.156 0 0.0922	0 0 0	0 0 0
UUCGCGUUGG	0.288	0.0869 0.0359 0.0738	0 0 0	0 0 0
UGGUCGAUCG	0.288	0.174 0.0359 0.0184	0.0276 0 0	0 0 0
UAGGAGUAUG	0.0131	0 0 0	0 0 0	0 0 0
UAGGCGAGCG	0.314	0.0521 0.0539 0.0184	0 0 0	0 0 0
UCGCCGAAGG	0.157	0.0869 0.144 0.0184	0 0 0	0 0 0
UGAACGUGGG	0.196	0.139 0.0898 0.221	0.0552 0 0	0 0 0
UUCGCGGCCG	0.196	0.0348 0.0359 0.0922	0 0 0	0 0 0
UACGCGCACG	0.196	0.104 0.0898 0.0553	0 0 0	0 0 0
UCACCGCCAG	0.118	0.921 0.808 0.572	0.0276 0.0252 0.162	0 0 0
UUGACGGAAG	0.118	0.122 0.0898 0.166	0 0 0	0 0 0
UGAUCGACUG	0.392	0.0869 0.144 0.0553	0 0 0	0 0 0
UCUACGCGAG	0.157	0.174 0.108 0.111	8.37 0.151 0	0.0180 0.0404 0.103
UUUUCGUCGG	0.0915	0.139 0.0359 0.111	0.0552 0 0	0 0 0
UGUACGUCAG	0.366	0.139 0.0359 0.0922	0 0 0	0 0 0
UGUACGUGGG	0.131	0.122 0.0719 0.0553	0.0276 0 0	0 0 0
UUUGCGAUUG	0.288	0.0174 0.0719 0.166	0 0 0.0464	0 0 0.0205
UUUUCGGCAG	0.170	0.139 0.0898 0.0738	0 0 0	0 0 0
UUGUCGUCGG	0.275	0.122 0.126 0.0738	0 0 0	0 0 0
UCGACGUUGG	0.261	0.156 0.0180 0.0369	0 0 0.0232	0 0 0
UUCCCGCACG	0.301	0.156 0.0898 0.0738	0 0 0.0232	0 0 0
UGCCCGGCUG	0.275	0.104 0.0898 0.0553	0 0 0	0 0 0
UCCUUGUUUG	0.0131	0 0 0	0 0 0	0 0 0
UCACCGUGUG	0.301	0.104 0.126 0.184	0 0 0.0464	0 0 0
UACGCGUUAG	0.275	0.139 0.108 0.0922	0 0 0	0 0 0
UACUCGCUUG	0.353	0.226 0.0180 0	0 0 0	0 0 0
UACCCGGUUG	0.118	0.0521 0.0898 0.148	0 0 0	0 0 0
UCUGCGUGCG	0.222	0.122 0.0898 0.111	0 0 0	0 0 0
UUCCCGCAUG	0.157	0.0521 0.0539 0.129	0 0 0	0 0 0
UAAUCGAGCG	0.366	0.834 0.772 0.406	0.0828 0.0252 0.0696	0 0 0
UAUGCGGCCG	0.118	0.0869 0.0719 0.0184	0.0276 0 0	0 0 0
UGAGCGAACG	0.170	0.174 0.126 0.129	0 0 0	0 0 0
UGGGCGAGGG	0.170	0.156 0.144 0.0553	0 0 0	0 0 0
UGUCCGAGUG	0.235	0.0521 0.180 0.129	0 0 0.0232	0 0 0
UCUACGCGGA	0.0131	0 0 0	0 0 0	0 0 0
UAUUCGUGUG	0.562	0.104 0.126 0.0738	0.0276 0 0	0 0 0.0205
UUGUCUUUUG	0.0131	0 0 0	0 0 0	0 0 0
UGGUCGCGAG	0.209	0.191 0.126 0.203	0 0 0.0928	0.0180 0.141 0.103
UAGUCGCGUG	0.196	0.0695 0.144 0.0922	0.0276 0 0.0232	0 0 0
UCGGCGUGAG	0.327	0.0521 0.144 0.129	0 0 0.0232	0 0 0

The opening 7 entries, copied out:

{"sequence": "UAUACGACUG", "pool": "0.288", "IR": "0.156 0.0898 0.0553", "LM": "0 0 0.0232", "Sys": "0 0 0"}
{"sequence": "UGACUGGAAG", "pool": "0.0131", "IR": "0 0 0", "LM": "0 0 0", "Sys": "0 0 0"}
{"sequence": "UCGCCGCGUG", "pool": "0.209", "IR": "0.243 0.144 0.166", "LM": "0 0.0252 0", "Sys": "0 0 0"}
{"sequence": "UCGACGACGG", "pool": "0.105", "IR": "0.156 0.0539 0.0553", "LM": "0 0 0", "Sys": "0 0 0"}
{"sequence": "UCCUCGACAG", "pool": "0.209", "IR": "0.191 0.0719 0.0369", "LM": "0 0 0.0464", "Sys": "0 0 0"}
{"sequence": "UAUCCGUCAG", "pool": "0.327", "IR": "0.0695 0.108 0.0553", "LM": "0.0276 0 0.0232", "Sys": "0 0 0"}
{"sequence": "UUAUCGUCCG", "pool": "0.366", "IR": "0.174 0.108 0.0922", "LM": "0 0 0.0232", "Sys": "0 0 0"}

Sequences that differ at fixed positions probably stem from PCR or sequencing errors, and defective variants can be carried along by functional ones.
Wild type was 20.7 per thousand in the pool and the most common sequence in every sample (inoculated region 195, 198, 203; leaf margin 629, 591, 734; systemic leaves 942, 870, 868).

From the data files of Wu et al. 2024, doi:10.1371/journal.ppat.1012142.